## Replication capacity of HIV-1 mutants, Vif

From the data files of Al-Mawsawi et al. 2014, doi:10.1186/s12977-014-0124-6.

Protein: Vif of HIV-1 NL4-3, numbered from its first residue. The source prints no sequence; the chain below is taken from UniProt P12504, a closely related isolate, and fits the source at the 145 positions it covers.
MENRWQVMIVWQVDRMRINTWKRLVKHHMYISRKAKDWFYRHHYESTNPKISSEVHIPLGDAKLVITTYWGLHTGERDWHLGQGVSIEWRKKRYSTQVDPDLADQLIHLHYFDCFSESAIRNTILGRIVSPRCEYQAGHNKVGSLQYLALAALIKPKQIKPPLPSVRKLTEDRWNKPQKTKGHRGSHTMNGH
"Other frame" gives the effect on an overlapping gene as the source lists it; other overlaps (genes, RNA elements) are not shown.

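Random point mutant libraries of HIV-1 NL4-3, one for each of seven fragments, were passaged in CEM T lymphocytes. The RC index is the frequency of a change after passage round 2 divided by its frequency in the plasmid library.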

RC index: lower means poorer replication; rough cut-offs are 0.1 (lethal) and 0.2 (tolerated).
Each entry names the wild-type residue, its position and the residue put in its place.
Input reads are the counts in the plasmid library.
An index over 1, which the authors read as above wild type, was rare (1.9% of all changes in the genome).
Nucleotide positions follow pNL4-3.
Since each clone held several changes (about five per kb), neutral changes can read low.

With I87T (base T5300C, input reads 164) the assay gave 0.0853. T123S (base A5407T, input reads 133) gave 0.0363. N19D (base A5095G, input reads 130) gave 0.669. With S52T (base G5195C, input reads 52) the assay gave 0.0492. For H80P (base A5279C, input reads 294) the result was 0.0370. Q136L (base A5447T, input reads 270) read 0.0805. T47N (base C5180A, input reads 100) read 0.153.

N190Y (base A5608T, other frame Vpr E17V, input reads 704) read 0.0332. With R132W (base A5434T, input reads 195) the assay gave 0.0371. R184G (base A5590G, other frame Vpr Q11R, input reads 388) gave 0.159. For I87K (base T5300A, input reads 260) the result was 0.0418. K63R (base A5228G, input reads 254) gave 0.0428. For E171K (base G5551A, input reads 141) the result was 0.539. H110L (base A5369T, input reads 213) gave 0.0170.

For K36M (base A5147T, input reads 253) the result was 0.0101. K50E (base A5188G, input reads 424) gave 0.0724. V7G (base T5060G, other frame integrase silent, input reads 38) read 0.118. D101N (base G5341A, input reads 223) read 0.453. H28L (base A5123T, input reads 321) gave 0.0637. K91N (base A5313T, input reads 296) gave 0.0210. For T47A (base A5179G, input reads 169) the result was 0.0605.

H108L (base A5363T, input reads 242) read 0.0399. With E54G (base A5201G, input reads 201) the assay gave 0.0763. With P49L (base C5186T, input reads 230) the assay gave 0.178. With R167W (base A5539T, input reads 161) the assay gave 0.0393. With G71S (base G5251A, input reads 280) the assay gave 0.111. With V13A (base T5078C, other frame integrase silent, input reads 199) the assay gave 0.0899. For K26R (base A5117G, input reads 175) the result was 0.0438.

With I154T (base T5501C, input reads 104) the assay gave 0.107. V7A (base T5060C, other frame integrase silent, input reads 273) gave 0.0822. W5R (base T5053A, other frame integrase M275K, input reads 432) gave 0.0364. For D172N (base G5554A, input reads 146) the result was 0.260. For W11R (base T5071A, other frame integrase V281E, input reads 380) the result was 0.0650. R15W (base A5083T, other frame integrase Q285L, input reads 337) gave 0.0455. For D172V (base A5555T, input reads 321) the result was 0.0641.

V65L (base G5233C, input reads 71) gave 0.0438. For Q97H (base A5331T, input reads 491) the result was 0.0348. With F39S (base T5156C, input reads 180) the assay gave 0.114. For A149E (base C5486A, input reads 78) the result was 0.0811. With Q12P (base A5075C, other frame integrase silent, input reads 46) the assay gave 0.0556. N48D (base A5182G, input reads 239) read 0.0428. I18F (base A5092T, other frame integrase D288V, input reads 194) gave 0.0264.

With T47S (base A5179T, input reads 182) the assay gave 0.0421. R173G (base A5557G, input reads 336) read 0.104. N190T (base A5609C, other frame Vpr E17D, input reads 148) gave 0.0971. A35D (base C5144A, input reads 132) gave 0.136. K22R (base A5105G, input reads 404) read 0.0570. With N3Y (base A5047T, other frame integrase K273I, input reads 296) the assay gave 0.0531. With G191V (base G5612T, other frame Vpr W18C, input reads 180) the assay gave 0.133.

M16K (base T5087A, other frame integrase D286E, input reads 246) read 0.0416. For K63I (base A5228T, input reads 246) the result was 0.0442. L125I (base T5413A, input reads 452) gave 0.101. With G191R (base G5611C, other frame Vpr W18S, input reads 123) the assay gave 0.0438. Y40F (base A5159T, input reads 283) read 0.0632. For L102I (base C5344A, input reads 260) the result was 0.125. With G71D (base G5252A, input reads 218) the assay gave 0.0784.

Extract of 4 entries:

mutation	base	other frame	input reads	replication capacity index
I154T	T5501C	none	104	0.107
H108L	A5363T	none	242	0.0399
A35D	C5144A	none	132	0.136
Q97H	A5331T	none	491	0.0348